The target of assay [1] is A/Puerto Rico/8/1934 (H1) HA K55E (influenza A virus A/Puerto Rico/8/1934 (H1N1)).
Assay [2] deals with A/Puerto Rico/8/1934 (H1) HA K55E.V444L (influenza A virus A/Puerto Rico/8/1934 (H1N1)).
Assay [3] has as its target A/Puerto Rico/8/1934 (H1) HA V444L (influenza A virus A/Puerto Rico/8/1934 (H1N1)).

The source of these data is paper PMC6742228.

Turning to MAb C179 (antibody), the HA-pseudovirus neutralization titer (IC95), 293T cells in assay [1] worked out at 2.02 µg/mL; in assay [2], 2.81 µg/mL; in assay [3], 1.73 µg/mL. The Plaque reduction titer (IC50), replicating virus on MDCK cells in assay [1] came to 25.7 µg/mL; in assay [2] it was 91.2 µg/mL; in assay [3], 68.8 µg/mL.

In the case of MAb CR6261 (antibody), the HA-pseudovirus neutralization titer (IC95), 293T cells in assay [1] was 0.43 µg/mL; in assay [2], 0.42 µg/mL; in assay [3], 0.38 µg/mL.

In the case of MAb FI6 (antibody), the HA-pseudovirus neutralization titer (IC95), 293T cells in assay [1] worked out at 0.53 µg/mL; in assay [2], 0.54 µg/mL; in assay [3], 0.49 µg/mL. For the same substance, the Plaque reduction titer (IC50), replicating virus on MDCK cells worked out at 2.4 µg/mL in assay [1], 5.9 µg/mL in assay [2] and 7.1 µg/mL in assay [3].
